Paper PMC10296771, “Glycosylation of H4 influenza strains with pandemic potential and susceptibilities to lung surfactant SP-D” (2023)

Biological target: Dodecameric human SP-D neck and carbohydrate domains with [change] and [change] mutations, biotinylated (human)
Assay: SPR

Substance | Kd
Hemagglutinin (H3) of A/pintail/339/1987 (H3N8), on whole virus (natural protein) | 52.6 nM
Hemagglutinin (H4) of A/blue-winged teal/Illinois/10OS1563/2010 (H4N6), on whole virus (natural protein) | 82 nM
Hemagglutinin (H4) of A/blue-winged teal/Wisconsin/402/1983 (H4N6), on whole virus (natural protein) | 101 nM
Hemagglutinin (H4) of A/duck/Czechoslovakia/1956 (H4N6), on whole virus (from UniProt P19696) (natural protein) | 175 nM
Hemagglutinin (H4) of A/swine/Missouri/A01727926/2015 (H4N6), on whole virus (natural protein) | 171 nM
